Measured values taken from the supplement of paper PMC9931576.
Substitutions are numbered along the chain they refer to. Human monoclonal antibodies against the spike receptor-binding domain (heavy:light variable regions). IC50 against pseudoviruses bearing the spike of naturally observed variants; lower = stronger; >10 µg/ml means not reached at the top dose. No active / inactive call. The stated detection limit is 0.0005 µg/ml; values near or below 0.001 µg/ml lie at the floor of the assay.

B1: BD56-956 (protein)
chain 1: QVQLVESGGGVVQPGRSLTLSCSASGFIFTNYAMHWVRQAPGKGLEWVAVVSYNGLNQYYVDSVEGRFTVSRDNSRNTLSLQMNSLRPEDTAVYYCAKAAGTGWYDVFQYGMDVWGHGTTVAVSS
chain 2: QSVLTQPPSVSGAPGQRVTISCTGRSSNFGSGYDVHWYQQLPGTAPKLLIYGNNNRPSGVPDRFSGSKSGTSASLAITGLAAEDEADYYCQSYDSTLSTWVFGGGTKLTVL
B2: BD56-973 (protein)
chain 1: QVQLVQSGAEVKKPGSSVKVSCKASGGTFSSHTISWVRQAPGQGLEWMGRIIPILAIANYAQTFQGRVTITADKSTSTAYMELSSLRFEDTAVYYCARASGCSSTGCTWYFDLWGRGTLVTVSS
chain 2: QSVLTQPPSVSGAPGQRVTISCTGSNSNIGAGYDVHWYQQVPGTAPKLLIYGNSNRPSGVPDRFSGSKSGTSASLAITGLQAEDEADYYCQSYDSGLSDSVFGTGTKVTVL
B3: BD56-961 (protein)
chain 1: QLQLHESGPGLVKPSETLSLTCTVPDGSMYSSSYYWGWIRQPPGRGLEWIGTIYFTGSTYYNPSLKSRVTISVDTSRNHFSLRLSSVTAADTAFYYCARGAHYYDSRHPVGAFDIWGQGRLVTVSS
chain 2: QSALTQPASVSGSPGQSITISCTGTSSDIGGDNYVSWYQQHPGKAPKLIIYDVNKRPSGVSNRFSGSKSDNTASLTISGLQAEDEADYSCTSYTSSSTYVFGTGTKVTVL
B4: CV07-283 (protein)
chain 1: QVQLVQSGAEVKKPGASAKVSCKASGYTFTGYYIHWVRQAPGQGLEWMGLINPISGGTNYAQKFQDRVTMTRDTSISTAYMELSRLRSDDTAVYYCVRGPFYYDSSGPLGGMDVWGQGTTVTVSS
chain 2: B3 chain 2 with S27G, I29V, D32Y, I49M, D52E, N54S, K55N, D70G, S89Y, T91S
B5: BD56-960 (protein)
chain 1: EVQLVESGGGLVKPGGSLRLSCAASGFTFNTYSMNWVRQAPGKGLEWVSSISGSSSNTYYADSVKGRFTISRDIAKSSLYLQMNSLRAEDTAVYYCVIEPSEWLRLRTGGSDPWGQGTLVTVSS
chain 2: DIQMTQSPSSLPASVGDRVTITCRASQTISYFLNWYQQKPGKAPKLLIYASSSLQSGVPSRFSGSGSGTDFTLTINSLQPEDSATYYCQQSYSTSWTFGQGTKVEIK
B6: BD56-970 (protein)
chain 1: EVQLVESGGGLIRPGGSLRLSCASSGFIVSRNYMSWVRQAPGKGLEWVSVIFSGGTTYYADSVKGRFTISRDNSKNTLYLQMNSLRAADTAVYYCARGGSGSPHQAEFDYWGQGTLVSVSS
chain 2: DIQMTQSPSSLSASVGDRVTITCRASQDISNCLAWFQQKPGKAPKSLIYAASSLQSGVPSKFSGNGYGTDFTLTISNLQPEDSATYYCQQCDSYPITFGQGTRLEIK
B7: BD56-957 (protein)
chain 1: QVQLVESGGGVVQPGRSLRLSCVASGFTFSSYAVHWVRQAPGTGLEWVTVISYDGTNKYYADSVKGRFTITRDNSKNTLYLQMNSLRGEDTAVYYCARDQGSYGSGWSTVFYYAMDVWGQGTTVTVSS
chain 2: QSVLTQPPSVSAAPGQKVTISCSGGSSNIGNNYVSWYQQLPGTAPKLLIYDNYKRPSGIPDRFSGSRSGTSATLGITGLQTGDEADYYCGSWDSSLSAWVFGGGTELTVL
B8: BD56-968 (protein)
chain 1: QVQLVQSGGGVVQPGRSLRLSCAASGFTFSNYAMHWVRQAPGKGLEWVALISYDGGDQYYADSVKGRFTFSRDNSKNTLSLQINSLKAEDTAVYYCAKNGQGYGSSWYYFDYWGQGTLVTVSS
chain 2: DIQMTQSPSSLSASVGDRVTITCQASQDISSYLNWYQQKPGKAPKILIYDASNLEAGVPSRFSGSGSATDFTFTISSLQPEDIATYYCQQYDNFPPTFGQGTKLEIK
B9: BD58-0573 (protein)
chain 1: EVQLVESGGGLIQPGGSLRLSCAASGVTVSRNYMSWVRQAPGKGLEWVSLIYSGGSTFYADSVKGRFTISRDNSKNTLYLQMNSLRAEDTAVYYCARDRYSGMDVWGQGTTVTVSS
chain 2: B8 chain 2 with S30N, S31N, Y32F, I46L, A68G, Y87F, F94L, P96Y, I106T
B10: BD56-1067 (protein)
chain 1: QVLLMESGGGVVQPGRSLRLSCVTSGFTFKTYGMHWVRQAPGKGLEWVAVIWYDGSNEYYVDSVKGRFTISRDNSKNTLYLQMNNLRVEDTGMYYCAKNQGQYASGNYYTPDYWGQGTLVTVSS
chain 2: DIQLTQSPSSLSASLGDRVTITCQASQDISNHLNWFQQKPGKAPKLLIYDASNLESGVPSRFSGSGSGTHFTFTVTSLRPEDIATYYCQNYDNLPLTFGGGTKVEIK
B11: BD56-969 (protein)
chain 1: QVQLVESGGGLVKPGGSLRLSCAASGFTFSDYYMGWVRQAPGKGLEWVSFISHTSGYTDYADSVKGRFTVSRDNAKDSLYLQMNSLRAEDTAVYYCARCGPFMVRGVIHAVEYFHHWGQGTLVTVSS
chain 2: EIVLTQSPGTLSLSPGERASLSCRASQTINNNHLAWYQQKPGQAPRLLIFGASSRATGIPDRFDGSGSGTDFTLTISRLEPEDFAVFYCQQYGNSPVTFGGGTKVEIK
B12: BD56-964 (protein)
chain 1: EVQLVESGGGLVQPGRSLRLSCVASGFTFDDFALHWVRQAPGKGLEWVSGVSWNSGTIGYADSVKGRFIVSRDNAKNSLYLRMNSLRPEDTALYYCARDVVPSTRPGSDPYAFDIWGQGTMVTVSS
chain 2: QSALTQPASVSGSPGQSITISCTGTSSDVGDYNYVSWYQQFPGKAPKLMIYDVSKRPSGVSNRFSGSKSGTTASLTISGLQVEDDTFFYCSSYTSSSTVLFGGGTKLTVL

Legend:
Assay in all cases: pseudovirus neutralization IC50; higher = weaker neutralization
[1] = biological target: SARS-CoV-2 Omicron BA.1 spike pseudovirus
Method: (§1)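 Single-round VSV luciferase pseudovirus mixed with antibody dilutions for 1 h and put on Huh-7 cells for about a day; IC50 from the dose curve.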

[2] = biological target: SARS-CoV-2 Omicron BA.2 spike pseudovirus
Method: as §1

[3] = biological target: SARS-CoV-2 Omicron BA.2.75 spike pseudovirus
Method: as §1

[4] = biological target: SARS-CoV-2 Omicron BA.5 spike pseudovirus
Method: as §1

[5] = biological target: SARS-CoV-2 Omicron BQ.1.1 spike pseudovirus
Method: as §1

[6] = biological target: SARS-CoV-2 Omicron XBB spike pseudovirus
Method: as §1

[7] = biological target: SARS-CoV-2 early D614G spike pseudovirus
Method: as §1

Row | Binder | pseudovirus neutralization IC50 [1] | pseudovirus neutralization IC50 [2] | pseudovirus neutralization IC50 [3] | pseudovirus neutralization IC50 [4] | pseudovirus neutralization IC50 [5] | pseudovirus neutralization IC50 [6] | pseudovirus neutralization IC50 [7]
1 | B1 | 0.488 µg/mL | 0.534 µg/mL | 0.474 µg/mL | 0.613 µg/mL | 1.56 µg/mL | 1.3 µg/mL | 0.194 µg/mL
2 | B2 | 0.342 µg/mL | 0.146 µg/mL | 0.318 µg/mL | > 10 µg/mL | > 10 µg/mL | 2.95 µg/mL | 0.521 µg/mL
3 | B3 | 0.00149 µg/mL | 0.000937 µg/mL | 0.00125 µg/mL | 3.24 µg/mL | 3.13 µg/mL | 3.85 µg/mL | 0.00102 µg/mL
4 | B4 | > 10 µg/mL | > 10 µg/mL | > 10 µg/mL | > 10 µg/mL | > 10 µg/mL | > 10 µg/mL | 0.0121 µg/mL
5 | B5 | 0.0214 µg/mL | 0.391 µg/mL | 0.0245 µg/mL | > 10 µg/mL | > 10 µg/mL | > 10 µg/mL | 0.00237 µg/mL
6 | B6 | 0.00383 µg/mL | 0.00115 µg/mL | 0.00334 µg/mL | 0.000714 µg/mL | 0.0882 µg/mL | 1.24 µg/mL | 0.00862 µg/mL
7 | B7 | 1.06 µg/mL | 0.828 µg/mL | > 10 µg/mL | > 10 µg/mL | > 10 µg/mL | > 10 µg/mL | > 10 µg/mL
8 | B8 | 3.31 µg/mL | 4.22 µg/mL | 2.55 µg/mL | 2.91 µg/mL | 5.4 µg/mL | 3.42 µg/mL | 3.46 µg/mL
9 | B9 | 0.000615 µg/mL | 0.00104 µg/mL | 0.383 µg/mL | 0.00307 µg/mL | 0.869 µg/mL | 2.61 µg/mL | 0.12 µg/mL
10 | B10 | > 10 µg/mL | > 10 µg/mL | > 10 µg/mL | > 10 µg/mL | > 10 µg/mL | > 10 µg/mL | > 10 µg/mL
11 | B11 | 0.399 µg/mL | 0.741 µg/mL | 0.00165 µg/mL | 1.24 µg/mL | 1.72 µg/mL | 3.9 µg/mL | 0.00105 µg/mL
12 | B12 | 0.17 µg/mL | 0.191 µg/mL | 0.398 µg/mL | 0.479 µg/mL | > 10 µg/mL | > 10 µg/mL | 0.0143 µg/mL
